## Potato spindle tuber viroid, loop 6: variant abundance in plants

PSTVd intermediate strain, loop 6: wild type UGACCGCGAG, pool pattern UNNNCGNNNG; upper and lower strand joined, each 5' to 3', the first 5 letters being the upper strand, closing pairs included.

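A pool of all variants was put on leaves of three Nicotiana benthamiana plants. Progeny were sequenced from the inoculated region (day 5), the margin of the inoculated leaf (day 10) and systemic leaves (day 12).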

Values are reads per thousand in the sample; higher means more abundant, 0 means not found.
Each site shows the three plants.
"Pool" is the share in the plasmid pool used as inoculum, on the same scale.
The inoculated region was read from the minus strand, the other sites from the plus strand.
IR is the inoculated region, LM the leaf margin, Sys the systemic leaves.
With 36,220-57,551 reads a sample, very low values are single reads.

sequence	pool	IR	LM	Sys
UUCUCGUAAG	0.144	0.0695 / 0.0539 / 0.0922	0 / 0 / 0	0 / 0 / 0
UUCUCGUACG	0.209	0.174 / 0.0359 / 0	0 / 0 / 0.0232	0 / 0 / 0
UUCUCGUAGG	0.314	0.139 / 0.0719 / 0.111	0 / 0 / 0	0 / 0 / 0
UUCUCGUAUG	0.366	0.156 / 0.0898 / 0.0184	0.248 / 0 / 0	0 / 0 / 0
UUCUCGUCAG	0.353	0.0869 / 0.0898 / 0.0369	0 / 0 / 0	0 / 0 / 0
UUCUCGUCCG	0.275	0.139 / 0.0719 / 0.0553	0.0276 / 0 / 0	0 / 0 / 0
UUCUCGUCGG	0.288	0.122 / 0.0180 / 0.0184	0 / 0 / 0	0 / 0 / 0
UUCUCGUCUG	0.418	0.0869 / 0.0539 / 0.0553	0.0276 / 0 / 0.0232	0 / 0 / 0
UUCUCGUGAG	0.301	0.156 / 0.0719 / 0.111	0 / 0 / 0	0 / 0 / 0.0205
UUCUCGUGCG	0.222	0.191 / 0.0898 / 0.129	0 / 0 / 0.0232	0 / 0 / 0
UUCUCGUGGG	0.235	0.0521 / 0.108 / 0.111	0 / 0 / 0	0 / 0 / 0
UUCUCGUGUG	0.418	0.104 / 0.126 / 0.0738	0 / 0 / 0	0 / 0 / 0
UUCUCGUUAG	0.418	0.139 / 0.108 / 0.166	0 / 0 / 0	0 / 0 / 0
UUCUCGUUCG	0.261	0.104 / 0.0180 / 0.0553	0.0276 / 0 / 0	0 / 0 / 0.0205
UUCUCGUUGG	0.340	0.104 / 0 / 0.111	0 / 0 / 0	0 / 0 / 0
UUCUCGUUUG	0.288	0.156 / 0.108 / 0.129	0 / 0 / 0	0 / 0 / 0
UUCUCUAUAG	0.0131	0 / 0 / 0	0 / 0 / 0	0 / 0 / 0
UUCUCUGUCC	0.0131	0 / 0 / 0	0 / 0 / 0	0 / 0 / 0
UUCUGGCUAG	0.0131	0 / 0 / 0	0 / 0 / 0	0 / 0 / 0
UUGACGAAAG	0.288	0.0695 / 0.0898 / 0.129	0 / 0 / 0	0 / 0 / 0
UUGACGAACG	0.327	0.0695 / 0.0719 / 0.0369	0.0276 / 0 / 0	0 / 0 / 0
UUGACGAAGG	0.157	0.0348 / 0.0180 / 0.0369	0 / 0 / 0	0 / 0 / 0
UUGACGAAUG	0.458	0.226 / 0.144 / 0.129	0 / 0 / 0	0.0180 / 0 / 0
UUGACGACAG	0.288	0.156 / 0.0719 / 0.129	0.0276 / 0 / 0	0 / 0 / 0
UUGACGACCG	0.209	0.0174 / 0.0898 / 0.111	0 / 0 / 0.0232	0 / 0 / 0
UUGACGACGG	0.275	0.0869 / 0.0180 / 0.0738	0 / 0 / 0.0464	0 / 0 / 0
UUGACGACUG	0.418	0.261 / 0.0359 / 0.0184	0 / 0 / 0	0 / 0 / 0
UUGACGAGAG	0.235	0.834 / 0.683 / 0.553	0.0552 / 0.0757 / 0.0696	0 / 0 / 0
UUGACGAGCG	0.301	0.0695 / 0.0359 / 0.148	0 / 0.177 / 0.0232	0 / 0.0202 / 0.0205
UUGACGAGGG	0.209	0.104 / 0.0898 / 0.111	0 / 0 / 0	0 / 0 / 0
UUGACGAGUG	0.288	0.156 / 0.0719 / 0.148	0 / 0 / 0	0 / 0 / 0
UUGACGAUAG	0.222	0.156 / 0.108 / 0.0369	0.0276 / 0 / 0.186	0 / 0 / 0
UUGACGAUCG	0.183	0.0521 / 0.108 / 0.166	0 / 0 / 0	0 / 0 / 0
UUGACGAUGG	0.379	0.122 / 0.0359 / 0.0553	0.0276 / 0 / 0	0 / 0 / 0
UUGACGAUUG	0.301	0.0869 / 0.0719 / 0.148	0.0276 / 0 / 0	0 / 0 / 0
UUGACGCAAG	0.118	0.104 / 0.198 / 0.295	0 / 0 / 0.0232	0 / 0 / 0
UUGACGCACG	0.235	0.0348 / 0.126 / 0.0553	0 / 0 / 0	0 / 0 / 0
UUGACGCAGG	0.235	0.156 / 0.126 / 0.0738	0 / 0 / 0.0232	0 / 0 / 0
UUGACGCAUG	0.170	0.0521 / 0.0898 / 0.0553	0.0276 / 0 / 0.0232	0 / 0 / 0
UUGACGCCAG	0.183	0.122 / 0.126 / 0.0738	0 / 0 / 0	0 / 0 / 0
UUGACGCCCG	0.275	0.0869 / 0.0719 / 0.0369	0.0276 / 0 / 0	0 / 0 / 0
UUGACGCCGG	0.183	0.104 / 0.0898 / 0.0184	0 / 0 / 0	0 / 0 / 0
UUGACGCCUG	0.366	0.261 / 0.162 / 0.0369	0 / 0.0504 / 0.0232	0.0180 / 0 / 0
UUGACGCGAG	0.183	0.156 / 0.216 / 0.129	0.193 / 0.252 / 0.325	0 / 0 / 0.0820
UUGACGCGCG	0.170	0.139 / 0.0719 / 0.0369	0 / 0 / 0	0 / 0 / 0
UUGACGCGGG	0.340	0.122 / 0.126 / 0.0738	0.0276 / 0 / 0	0 / 0 / 0
UUGACGCGUG	0.170	0.174 / 0.198 / 0.0922	0.0276 / 0 / 0.0464	0 / 0 / 0
UUGACGCUAG	0.248	0.139 / 0.126 / 0.0553	0.0276 / 0 / 0	0 / 0 / 0
UUGACGCUCG	0.248	0.104 / 0.144 / 0.0553	0 / 0 / 0	0 / 0 / 0
UUGACGCUGG	0.157	0.0695 / 0.126 / 0.0738	0 / 0 / 0	0 / 0 / 0
UUGACGCUUG	0.275	0.0869 / 0.180 / 0.0738	0 / 0 / 0	0 / 0 / 0
UUGACGGAAG	0.118	0.122 / 0.0898 / 0.166	0 / 0 / 0	0 / 0 / 0
UUGACGGACG	0.157	0.678 / 0.593 / 0.443	0 / 0.151 / 0.0464	0 / 0 / 0
UUGACGGAGG	0.170	0.0521 / 0.126 / 0.0184	0 / 0 / 0	0 / 0 / 0
UUGACGGAUG	0.261	0.139 / 0.126 / 0.129	0 / 0 / 0	0 / 0 / 0
UUGACGGCAG	0.183	0.0869 / 0.0898 / 0.0553	0 / 0 / 0	0 / 0 / 0
UUGACGGCCG	0.235	0.191 / 0.0719 / 0.0738	0 / 0 / 0.0464	0 / 0 / 0.0205
UUGACGGCGG	0.196	0.0521 / 0.0719 / 0.148	0 / 0 / 0	0 / 0 / 0
UUGACGGCUG	0.144	0.104 / 0.0898 / 0.0738	0 / 0 / 0	0 / 0 / 0
UUGACGGGAG	0.131	0.938 / 0.719 / 0.535	0.166 / 0.101 / 0.0696	0.0359 / 0.0606 / 0.0205
UUGACGGGCG	0.261	0.712 / 0.754 / 0.627	0.193 / 0.126 / 0	0 / 0 / 0
UUGACGGGGG	0.196	0.139 / 0.0359 / 0.0369	0 / 0 / 0.0464	0 / 0 / 0
UUGACGGGUG	0.261	0.139 / 0.0180 / 0.111	0 / 0 / 0	0 / 0 / 0
UUGACGGUAG	0.222	0.209 / 0.0719 / 0.0184	0 / 0 / 0	0 / 0.0202 / 0
UUGACGGUCG	0.222	0.156 / 0.0898 / 0.0738	0 / 0 / 0.0232	0 / 0 / 0
UUGACGGUGG	0.261	0.0695 / 0.0539 / 0.111	0 / 0 / 0.0464	0 / 0 / 0

The first 8 entries again:

sequence	pool	IR	LM	Sys
UUCUCGUAAG	0.144	0.0695 / 0.0539 / 0.0922	0 / 0 / 0	0 / 0 / 0
UUCUCGUACG	0.209	0.174 / 0.0359 / 0	0 / 0 / 0.0232	0 / 0 / 0
UUCUCGUAGG	0.314	0.139 / 0.0719 / 0.111	0 / 0 / 0	0 / 0 / 0
UUCUCGUAUG	0.366	0.156 / 0.0898 / 0.0184	0.248 / 0 / 0	0 / 0 / 0
UUCUCGUCAG	0.353	0.0869 / 0.0898 / 0.0369	0 / 0 / 0	0 / 0 / 0
UUCUCGUCCG	0.275	0.139 / 0.0719 / 0.0553	0.0276 / 0 / 0	0 / 0 / 0
UUCUCGUCGG	0.288	0.122 / 0.0180 / 0.0184	0 / 0 / 0	0 / 0 / 0
UUCUCGUCUG	0.418	0.0869 / 0.0539 / 0.0553	0.0276 / 0 / 0.0232	0 / 0 / 0

Sequences that differ at fixed positions probably stem from PCR or sequencing errors, and defective variants can be carried along by functional ones.
For reference, wild type rose from 20.7 per thousand in the pool to 195, 198, 203 (inoculated region), 629, 591, 734 (leaf margin) and 942, 870, 868 (systemic leaves).

The measurements come from Wu et al. 2024 (doi:10.1371/journal.ppat.1012142).